Pooled drug test results. Numbers come from NIAID ChemDB, via PubChem.

Common to all: cytotoxicity tests; cell line: VERO; read-out: CC50

CCn: concentration that lowers growth or viability of the cells by n%.

compound	method	value
CC(C)(C)OC(=O)N1C[C@H]2CC(n3cnc4c(Cl)ncnc43)[C@@H]1C2	MTS	53 µM
CCCCCCCn1c2ccccc2c2c(OC)c(CO)c(C)cc21		40 µM
C/C=C1\[C@H](OC2O[C@H](CO)[C@@H](O)[C@H](O)[C@H]2O)OC=C(C(=O)O)[C@H]1CC(=O)OCC(OCC)c1ccc(O)c(O)c1		166.7 µM
CCC[CH2][Sn]([Br])([I])[CH2]CCC.c1cnc2c(c1)ccc1cccnc12		0.11 µg/mL
CC[C@@H](CO)NCCN[C@@H](CC)CO	MTT	>62.5 µg/mL
CCN(CC)c1cc2oc3cc(N)cc(=N)c-3nc2cc1C		0.993 µg/mL
COc1ccc2c(c1)c1cc(CO)c(C)cc1n2C		>128 µM
O=c1[nH]c(=O)n([C@@H]2C=C[C@@H](CO)O2)cc1F		3 µM
OC(c1cc(C23CC4CC(CC(C4)C2)C3)nc2c(Cl)cc(Cl)cc12)C1CCCCN1		2.1 µg/mL
CCOC(=O)c1cnccn1	MTS	>657 µM
CCCSc1nsc(-c2ccccc2)c1C#N		200 µg/mL
C=CC(O)C#CC#CC(O)/C=C\CCCCCCC		>120 µg/mL
COC(=O)c1n[nH]c(C)c1N=NN1CCC(C(N)=O)CC1		5.7 µg/mL
Nc1ncnc2c1ncn2[C@@H]1O[C@@H](CO)C=C1F		>100 µM
N#Cc1c(NC(=S)Nc2ccccc2)nc2[nH]c(=O)[nH]c(=O)c2c1-c1ccc(Cl)cc1		40 µg/mL
CCc1ccc2c(c1)[nH]c1ccc(N)cc12		62 µM
Nc1c2c(-c3ccc(Br)cc3)c3c(=O)[nH]c(=O)[nH]c3nc2nc(=O)n1-c1ccccc1		80 µg/mL
O=C1c2cc3ccoc3cc2O[C@@H]2COc3cc4c(cc3[C@]12O)OCO4		>50 µg/mL
Cc1[nH]nc(-c2cccnc2)c1N=NN(C)C		0.44 µg/mL
O=C(OCCCl)c1cnccn1	MTS	>536 µM
Cc1cccc2c1OP(=O)(OC[C@H]1O[C@@H](n3cc(/C=C/Br)c(=O)[nH]c3=O)C[C@@H]1OC(=O)[C@H](N)Cc1ccccc1)OC2		>128 µg/mL
COc1cc([C@@H]2c3cc4c(cc3[C@H](O)[C@H]3COC(=O)[C@H]23)OCO4)cc(OC)c1OC		>20 µg/mL
O=c1cc(-c2ccccc2)oc2cc(O)cc(O)c12		>50 µg/mL
COc1c2c(cc3ccoc13)C(=O)[C@@]1(O)c3cc4c(cc3OC[C@H]1O2)OCO4		50 µg/mL
CCN(CC)C(=S)S		6.5 µg/mL
N#Cc1c(NC(=S)Nc2ccccc2)nc2[nH]c(=O)[nH]c(=O)c2c1-c1ccc(Br)cc1		50 µg/mL
Nc1nccc2c1ncn2[C@@H]1C[C@H](CO)[C@@H](O)[C@H]1O		11 µg/mL
COc1cc([C@@H]2c3cc4c(cc3[C@H](OC(C)=O)[C@@H]3COC(=O)[C@@H]23)OCO4)cc2nc3cc(C)c(C)cc3nc12		>25 µg/mL
Cc1ccn2c(N=O)c(-c3ccccc3)nc2c1		>12.5 µg/mL
O=c1ccn([C@H]2C=C(F)[C@@H](CO)S2)c(=O)[nH]1	MTT	>100 µM
CC[C@@H](C(C)C)[C@@H](O)[C@H](O)[C@@H](C)[C@H]1CC[C@H]2[C@@H]3CC(=O)[C@H]4C[C@@H](Br)CC[C@]4(C)[C@H]3CC[C@]12C	MTT	114 µM
CC(=O)OC[C@@H]1C=C[C@H](n2cc(F)c(N)nc2=O)O1	MTT	>100 µM
CC[C@@H](C(C)C)[C@H](O)[C@@H](O)[C@@H](C)[C@H]1CC[C@H]2[C@@H]3CC(=O)[C@@]4(O)C[C@@H](Br)CC[C@]4(C)[C@H]3CC[C@]12C	MTT	185 µM
COC(=O)[C@@H]1[C@H](c2cc(OC)c3nc4cc(Cl)c(Cl)cc4nc3c2)c2cc3c(cc2C2=NOC[C@@H]21)OCO3		30 µg/mL
Nc1nc(=O)n([C@H]2C=C(F)[C@@H](CO)S2)cc1F	MTT	>100 µM
CCOC(=O)CSc1nsc(-c2ccccc2)c1C#N		200 µg/mL
CO[C@@]12[C@H](COC(C)=O)C3=C(C(=O)C(C)=C(N4CCCCC4)C3=O)N1C[C@@H]1N[C@@H]12		0.44 µg/mL
COc1cc([C@@H]2c3cc4c(cc3[C@H](OC(C)=O)[C@@H]3COC(=O)[C@@H]23)OCO4)cc2c1OC1(N3CCCC3)CCCCC1O2		>25 µg/mL
COc1cc2c(cc1-c1cc3cc4ccoc4cc3oc1=O)OCO2		>50 µg/mL
N#Cc1c(N2CCCCC2)nsc1-c1ccccc1		25 µg/mL
Nc1nc(=O)n([C@@H]2C=C(F)[C@H](CO)S2)cc1F	MTT	88.1 µM
C/C=C1/[C@H](O[C@@H]2O[C@H](CO)[C@@H](O)[C@H](O)[C@H]2O)OC=C(C(=O)OC)[C@H]1CC(=O)OCCc1ccc(O)c(O)c1		213.4 µM
Oc1cc(O)c2c(c1)O[C@H](c1ccc(O)c(O)c1)[C@@H](O)C2		>50 µg/mL
CC(C)(C)OC(=O)N1C[C@H]2CC(n3cnc4c(NC5CC5)ncnc43)[C@@H]1C2	MTS	>135 µM
COc1cc2oc3c(C)c(=O)cc4oc(-c5ccccc5)cc(c2c2c1CC[C@@H](c1ccccc1)O2)c43		>10 µg/mL
O=c1cc(N2CCN(CC3CCCCC3)CC2)sc2c([N+](=O)[O-])cc(C(F)(F)F)cc12	MTT	>64 µg/mL
CC[C@@H](C(C)C)[C@@H](O)[C@H](O)[C@@H](C)[C@H]1CC[C@H]2[C@@H]3CC(=O)[C@H]4C[C@H](O)[C@H](O)C[C@]4(C)[C@H]3CC[C@]12C	MTT	62 µM
CCCSc1nsc(-c2ccccc2)c1C(=O)OC		50 µg/mL
C=CC(O)C#CC#CC(O)C1OC1CCCCCCC		>120 µg/mL
C/C(=N\NC(=O)c1ccncc1)c1cccc(C(F)(F)F)c1		>10 µg/mL
CCCCCC(=O)N1C[C@H]2C[C@@H]1CC2n1cnc2c(Cl)ncnc21	MTS	86 µM
CO[C@H]1/C=C/O[C@@]2(C)Oc3c(C)c(O)c4c(O)c(c(/C=N/N5CCN(C)CC5)c(O)c4c3C2=O)NC(=O)/C(C)=C\C=C\[C@H](C)[C@H](O)[C@@H](C)[C@@H](O)[C@@H](C)[C@H](OC(C)=O)[C@@H]1C	MTT	512 µg/mL
CC[C@H]1C[C@H]2CC[C@H](O2)[C@H](C)C(=O)O[C@H](C)C[C@@H]2CC[C@@H](O2)[C@H](C)C(=O)O[C@@H](CC)C[C@H]2CC[C@H](O2)[C@H](C)C(=O)O[C@H](C)C[C@@H]2CC[C@@H](O2)[C@H](C)C(=O)O1		0.4 µg/mL
Oc1cc(O)c2c(c1)O[C@H](c1cc(O)c(O)c(O)c1)[C@H](O)C2		>100 µg/mL
CCCCCCCCCCCCSC(N)=S		40.7 µg/mL
CC[C@@H](C(C)C)[C@H](O)[C@@H](O)[C@@H](C)[C@H]1CC[C@H]2[C@@H]3CC(=O)[C@H]4C[C@H](O)[C@H](O)C[C@]4(C)[C@H]3CC[C@]12C	MTT	259 µM
CC(=O)O[C@H]1C[C@H](n2cc(/C=C/Br)c(=O)[nH]c2=O)O[C@@H]1COP1(=O)OCc2cccc(C)c2O1		>128 µg/mL
Oc1cc(O)c2c(c1)O[C@H](c1cc(O)c(O)c(O)c1)[C@@H](O)C2		>80 µg/mL
Nc1ncnc2c1ccn2[C@@H]1O[C@H](CO)[C@@H](O)[C@H]1O		0.0063 µg/mL
NC(=Nc1ccc(S(=O)(=O)Nc2cnc3ccccc3n2)cc1)/N=C(\N)Nc1ccc(Br)cc1		>62.5 µg/mL
CC[C@@H](C(C)C)[C@@H](O)[C@H](O)[C@@H](C)[C@H]1CC[C@H]2[C@@H]3CC(=O)[C@@]4(F)C[C@@H](O)CC[C@]4(C)[C@H]3CC[C@]12C	MTT	100 µM
O=c1cc(N2CCN(Cc3ccccc3)CC2)sc2c([N+](=O)[O-])cc(C(F)(F)F)cc12	MTT	>64 µg/mL
Cc1cccc2c1OP(=O)(OC[C@H]1O[C@@H](n3cc(/C=C/Br)c(=O)[nH]c3=O)C[C@@H]1OC(=O)[C@@H](N)CC(C)C)OC2		>128 µg/mL
CCCSc1nsc(-c2ccccc2)c1C(N)=O		300 µg/mL
O=C1c2ccc(N3CCCCC3)cc2-n2c1nc1ccncc1c2=O		11 µg/mL
CC[C@H](/C=C/[C@@H](C)[C@H]1CC[C@H]2[C@@H]3CC(=O)[C@@]4(O)C[C@@H](O)CC[C@]4(C)[C@H]3CC[C@]12C)C(C)C	MTT	901 µM
COc1ccc(-c2c(C#N)c(N)nc3[nH]c(=O)[nH]c(=O)c23)cc1OC		200 µg/mL
Cc1nccc2c(C)c3sc4ccccc4c3cc12		1.03 µg/mL
Nc1ncnc2c1ncn2[C@H]1C=C(F)[C@@H](CO)S1	MTT	>100 µM
CCC1[C@H](OC2O[C@H](CO)[C@@H](O)[C@H](O)[C@H]2O)OC=C(C(=O)O)[C@H]1CC(=O)OCCc1ccc(O)cc1		250 µM
O=C(OCCOC(=O)c1cnccn1)c1cnccn1	MTS	>365 µM
N#Cc1c(N2CCCC2)nsc1-c1ccccc1		7 µg/mL
c1ccc2c(c1)nc1cc(NC3CCCCC3)c(=NC3CCCCC3)cc-1n2C1CCCCC1		28.33 µg/mL
COc1cc([C@@H]2c3cc4c(cc3[C@H](OC(C)=O)[C@@H]3COC(=O)[C@H]23)OCO4)cc2c1OCCO2		>25 µg/mL
CCCCCCCn1c2ccccc2c2cc(CO)c(C)cc21		30 µM
COC(=O)[C@@H]1[C@H](c2cc(OC)c3nc4cc(C)c(C)cc4nc3c2)c2cc3c(cc2C2=NOC[C@@H]21)OCO3		60 µg/mL
O=c1[nH]c(=O)n([C@H]2C[C@H](O)[C@@H](COP3(=O)OCc4c(Cl)cccc4O3)O2)cc1/C=C/Br		82.3 µg/mL
COc1cc([C@@H]2c3cc4c(cc3[C@H](OC(C)=O)[C@@H]3COC(=O)[C@@H]23)OCO4)cc2c1OC1(N3CCOCC3)CCCCC1O2		>25 µg/mL
CCCCCC(=O)N1C[C@H]2CC(n3cnc4c(Cl)ncnc43)[C@@H]1C2	MTS	>71 µM
NNC(=O)C(=O)Nc1ccc(F)cc1		>50 µg/mL
Cc1cc2c(cc1O)[nH]c1ccccc12		36 µM
C[C@@]1(CO)[C@H](O)CC[C@@]2(C)[C@H]1CC[C@H]1C[C@@H]3C[C@@]12CC[C@]3(O)CO		50 µg/mL
Nc1ccc2cc3[nH]c4cc(N)ccc4c3nc2c1		<0.257 µg/mL
N#Cc1c(N)nc2[nH]c(=O)[nH]c(=O)c2c1-c1ccc(Br)cc1		200 µg/mL
COC(=O)c1cc(OC)c2[nH]c3ccccc3c2c1		>128 µM
Cc1cc(O)c2c(c1)C(=O)C(c1c(C)cc3c(c1O)C(=O)C1OC1C3=O)=CC2=O		<0.41 µg/mL
O=c1[nH]cnc2c1ncn2[C@H]1O[C@@H](CO)C=C1F		>100 µM
CC1(C)[C@@H](O[C@H]2O[C@H](C(=O)O)[C@@H](O)[C@H](O)[C@H]2O[C@@H]2O[C@H](C(=O)O)[C@@H](O)[C@H](O)[C@H]2O)CC[C@]2(C)[C@H]3C(=O)C=C4[C@@H]5C[C@@](C)(C(=O)O)CC[C@]5(C)CC[C@@]4(C)[C@]3(C)CC[C@@H]12		2418 µg/mL
Nc1nc2c(ncn2[C@@H]2C=C(F)[C@H](CO)S2)c(=O)[nH]1	MTT	>100 µM
Cc1ccccc1-n1c(SCC(=O)NC(=O)Nc2cccc(Cl)c2)nc2c(Br)cc(Br)cc2c1=O		>10 µg/mL
Nc1nc(=O)n([C@H]2C=C[C@@H](CO)C2)cc1F		>100 µM
CC[C@@H](C(C)C)[C@@H](O)[C@H](O)[C@@H](C)[C@H]1CC[C@H]2[C@@H]3COC(=O)C4C[C@H](O)[C@H](O)C[C@]4(C)[C@H]3CC[C@]12C	MTT	427 µM

Again, the opening 7 rows:

{"compound": "CC(C)(C)OC(=O)N1C[C@H]2CC(n3cnc4c(Cl)ncnc43)[C@@H]1C2", "method": "MTS", "value": "53 µM"}
{"compound": "CCCCCCCn1c2ccccc2c2c(OC)c(CO)c(C)cc21", "value": "40 µM"}
{"compound": "C/C=C1\\[C@H](OC2O[C@H](CO)[C@@H](O)[C@H](O)[C@H]2O)OC=C(C(=O)O)[C@H]1CC(=O)OCC(OCC)c1ccc(O)c(O)c1", "value": "166.7 µM"}
{"compound": "CCC[CH2][Sn]([Br])([I])[CH2]CCC.c1cnc2c(c1)ccc1cccnc12", "value": "0.11 µg/mL"}
{"compound": "CC[C@@H](CO)NCCN[C@@H](CC)CO", "method": "MTT", "value": ">62.5 µg/mL"}
{"compound": "CCN(CC)c1cc2oc3cc(N)cc(=N)c-3nc2cc1C", "value": "0.993 µg/mL"}
{"compound": "COc1ccc2c(c1)c1cc(CO)c(C)cc1n2C", "value": ">128 µM"}

Blank or dashed fields: not listed here. Lines come from different laboratories, so protocols vary.